PubChem BioAssay AID624099 | ICCB-Longwood – 2012
Test: 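Host factors E2 relies on to silence an HPV18 LCR reporter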 (primary screen). Cell system: human C33A cervical carcinoma cells (HPV-negative) stably expressing BPV1 E2 and an HPV18 LCR luciferase reporter. Reagent: siRNA pool against human genes, 40 nM. Duration: 72 h. Measurement: 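Per-well luciferase luminescence, z-scored on each plate against the plate mean and SD with control wells left out, then averaged across three replicate plates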. Reading the numbers: mean z-score and z-score: higher = stronger reporter signal, weaker E2 silencing. Hit rule: 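Hit if mean z-score reaches 2 and two or more of three replicate z-scores also reach 2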.
The deposit covers about 21,000 reagents; this is an unselected part. 497 of all reagents (2.4%) count as active. 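Higher z means weaker E2 silencing; only reporter increases were scored, and knock-downs that hurt cell survival may mask genuine repressor factors.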 A number with no mark means an inactive call. The numbers tell different reagents against one gene apart. No sequences are given here.

Gene | reagent no. | mean z-score | z-score, replicate A | z-score, replicate B | z-score, replicate C
RSRC1 | 1 | -0.27 | -0.26 | -0.44 | -0.1
MYBPHL | 1 | 0.36 | 0.29 | 0.79 | 0.02
LRRC3 | 1 | -0.52 | -0.13 | -0.73 | -0.71
LRRC3 | 2 | 0.81 | 0.54 | 1.14 | 0.75
ARID3B | 1 | 1.48 | 1.17 | 2.06 | 1.21
CEL | 1 | -0.88 | -0.79 | -0.96 | -0.9
ZNF850 | 1 | -0.65 | -0.79 | -0.29 | -0.87
MSRB3 | 1 | -0.13 | -0.19 | -0.09 | -0.11
RPA3 | 1 | 0.81 | 0.71 | 0.82 | 0.89
LYG1 | 1 | -0.76 | -0.87 | -0.65 | –
ARPP19 | 1 | -0.82 | -0.87 | -0.84 | -0.74
GAA | 1 | -0.21 | -0.05 | -0.48 | -0.09
LOC387932 (retired record) | 1 | 0.46 | 0.71 | 0.55 | 0.12
NRCAM | 1 | 1.24 | 1.49 | 1.22 | 1
EXPH5 | 1 | 0.39 | 0.59 | 0.34 | 0.26
FITM1 | 1 | 0.31 | 0.15 | 0.37 | 0.42
SEPSECS-DT | 1 | 0.65 | 0.67 | 0.76 | 0.52
ERLIN2 | 1 | -1.12 | -1.03 | -1.29 | -1.04
LOC388687 (retired record) | 1 | -0.15 | 0 | -0.07 | -0.4
RPL21 | 1 | -2.35 | -2.38 | -2.51 | -2.16
DEDD | 1 | 1.14 | 0.93 | 1.11 | 1.39
MLLT3 | 1 | -0.2 | 0.09 | -0.27 | -0.41
SDR39U1 | 1 | -0.18 | -0.08 | -0.32 | -0.13
